In PMC5206724, “Insensitivity to pain induced by a potent selective closed-state Nav1.7 inhibitor” (Scientific Reports, 2017):

What was measured:
human Nav1.4 (human) = human Nav1.4 (human) (UniProt P35499)
human Nav1.6 (human) = human Nav1.6 (human) (UniProt Q9UQD0)
human Nav1.7 (human) = human Nav1.7 (human) (UniProt Q15858)
human Nav1.5 (human) = human Nav1.5 (human) (UniProt Q14524)

ProTX-II W7Q, W30L lacking the extra GP residues (from UniProt P83476 1-30) (peptide)
pIC50 of inhibition of the sodium channel (method not given) (human Nav1.4 (human)): 5.4 -log10(IC50) | pIC50 of inhibition of the sodium channel (method not given) (human Nav1.6 (human)): 5.7 -log10(IC50) | pIC50 of inhibition of the sodium channel (method not given) (human Nav1.7 (human)): 8 -log10(IC50)

JNJ63955918 (GP-ProTX-II W7Q, W30L) (from UniProt P83476 1-30) (peptide)
pIC50 of inhibition of sodium current, automated patch clamp (QPatch) (human Nav1.5 (human)): < 5.5 -log10(IC50)
